US20210223230A1, “Neamine Compositions and Methods of Use Thereof” (President and Fellows of Harvard College, priority 2008, published 2021)

Test system: ANG
Test: Nuclear translocation of ANG
Format: cell-based
Details: inhibitors tested

O=[As]c1ccccc1 (stereo not shown)
effect on nuclear translocation of ANG: no detectable effect
